Pooled drug test results. Numbers come from NIAID ChemDB, via PubChem.

All rows: whole-cell or culture tests; species: Hepatitis C virus; cells: Huh7; endpoint: EC50

ECn is the concentration giving n% inhibition of infection, replication or growth. Neighbouring rows are from separate reports. Two numbers with a dash give a range or band. Blank or dashed fields: not listed here.

smiles | strain or isolate | mutations | method | result
C[C@@H](NC(=O)OCc1ccccc1)C(=O)Nc1ccc(C2SC(=Nc3cccc(F)c3)N(Cc3ccoc3)C2=O)cc1 | - | - | replicon | 0.1–1 µM
Cc1oc(-c2cccc(NC(=O)[C@@H](C)NC(=O)c3ccc4c(c3)nc(-c3ccoc3)n4C3CCCCC3)c2)cc1C(=O)O | - | - | - | ≤5 µM
NC(=S)Nc1ccc2c(c1)OC(c1ccccc1)O2 | - | - | replicon | <1 µM
C=C[C@@H]1C[C@]1(NC(=O)[C@@H]1C[C@@H](Nc2nccc3ccccc23)CN1C(=O)[C@@H](NC(=O)OC)C(C)(C)C)C(=O)NS(=O)(=O)C1CC1 | BMS | - | replicon | 0.1–1 µM
C=C[C@@H]1C[C@]1(NC(=O)[C@@H]1C[C@@H](Oc2cc(-c3ccccc3)nc3cc(OC)ccc23)CN1C(=O)[C@@H](NC(=O)OC(C)(C)C)C(C)(C)C)C(=O)NS(=O)(=O)c1cccc(C#N)c1 | 1b | - | replicon | <0.5 µM
N#Cc1c(Nc2cccc(Br)n2)s[nH]c1=O | - | - | replicon | 10–50 µM
O=C(O)c1ccc2c(C3CCCCC3)c3n(c2c1)CC(O)CNc1ccccc1-3 | - | - | replicon | 1–10 µM
C#C[C@]1(CO)O[C@@H](n2ccc(=O)[nH]c2=O)[C@H](O)[C@@H]1O | - | - | replicon | >20 µM
C=CC[C@](C)(NC(=O)[C@H]1C[C@@H](Oc2nc(-c3ccco3)c(OC)c3ccccc23)CN1C(=O)[C@@H](NC(=O)OC(C)(C)C)C(C)(C)C)C(=O)NS(=O)(=O)C1CC1 | BMS | - | replicon | 0.1–1 µM
CCOc1nc(N)nc2ccc(-c3ccc(NC(=O)[C@@H](N)CO)cc3)nc12 | - | - | replicon | <0.3 µM
O=C(Nc1ccc(C2SC(=Nc3ccc(N4CCOCC4)cc3)N(Cc3ccccn3)C2=O)cc1)[C@H]1CCCN1C(=O)Cc1ccc(C(F)(F)F)cc1 | - | - | replicon | 1–5 µM
CC(C)S(=O)(=O)NC(=O)c1ccc2c(C3CCCCC3)c3n(c2c1)C(O)c1cc(OCc2ccccc2)ccc1-3 | - | - | replicon | 0.01–1 µM
C=C[C@]1(CO)O[C@@H](n2ccc(N)nc2=O)[C@H](O)[C@@H]1O | - | - | replicon | <20 µM
C=CC[C@](C)(NC(=O)[C@H]1C[C@@H](Oc2cccc3nccc(Cl)c23)CN1C(=O)[C@@H](NC(=O)OC(C)(C)C)C(C)(C)C)C(=O)NS(=O)(=O)C1CC1 | BMS | - | replicon | <0.1 µM
O=C(O)c1ccc2c(C3CCCCC3)c3n(c2c1)CC(C(=O)Nc1ccccc1)Cc1ccccc1-3 | - | - | replicon | 1–10 µM
C=CC[C@](C)(NC(=O)[C@H]1C[C@@H](Oc2cnc3ccccc3n2)CN1C(=O)[C@@H](NC(=O)OC(C)(C)C)C(C)(C)C)C(=O)NS(=O)(=O)C1CC1 | BMS | - | replicon | 0.1–1 µM
COc1ccc(N=C2SC(c3ccc(NC(=O)[C@H]4CCCN4C(=O)OCc4ccccc4)cc3)C(=O)N2Cc2ccco2)cn1 | - | - | replicon | 0.1–1 µM
COc1c(-c2ccc3cc(NS(C)(=O)=O)ccc3c2)cc(-n2ccc(=O)[nH]c2=O)cc1C(C)(C)C | genotype 1b Con1 | Y448H | luciferase | 0.027 µM
O=C(O)/C=C/c1ccc(NC(=O)C2(NC(=O)c3ccc4c(C5CCCCC5)c5n(c4c3)CC=Cc3ccccc3-5)CCCC2)cc1 | - | - | replicon | 0.01–1 µM
NC(=S)Nc1cccc(OC2Cc3ccccc3C2)c1 | - | - | replicon | <1 µM
C=C[C@H]1C[C@@]1(NC(=O)[C@@H]1C[C@@H](Oc2nccc3cc(OC)ccc23)CN1C(=O)[C@@H](NC(=O)OC(C)C)C(C)(C)C)C(=O)NS(=O)(=O)C1CC1 | BMS | - | replicon | 0.1–1 µM
CC#C[C@]1(CO)O[C@@H](n2ccc(N)nc2=O)[C@H](O)[C@@H]1O | - | - | replicon | >20 µM
O=C(O)/C=C/c1ccc(NC(=O)CNC(=O)c2ccc3c(c2)nc(-c2ccoc2)n3C2CCCCC2)cc1 | - | - | - | 5–50 µM
NC(=S)NC1(c2ccc(Oc3ccccc3)cc2)CCCCC1 | - | - | replicon | <1 µM
Cc1cnc(CN2C(=O)C(c3ccc(NC(=O)[C@@H](C)NC(=O)OCc4ccccc4)cc3)SC2=Nc2cccc(F)c2)cn1 | - | - | replicon | <0.1 µM
CCO[C@]1(CO)O[C@@H](n2ccc(N)nc2=O)[C@H](O)[C@@H]1O | - | - | replicon | >20 µM
NC(=S)NCc1cccc(-c2ccccc2)c1 | - | - | replicon | <1 µM
O=C(O)/C=C/c1ccc(NC(=O)C2(NC(=O)c3ccc4c(C5CCCCC5)c5n(c4c3)CCCCNc3ccccc3-5)CCCC2)cc1 | - | - | replicon | 0.01–1 µM
C=CC[C@](C)(NC(=O)[C@H]1C[C@@H](Oc2nccc3sccc23)CN1C(=O)[C@@H](NC(=O)OC(C)(C)C)C(C)(C)C)C(=O)NS(=O)(=O)C1CC1 | BMS | - | replicon | 0.1–1 µM
NC(=S)NCc1ccc(OCc2ccc(-c3ccccc3)cc2)cc1 | - | - | replicon | <1 µM
CCOc1nc(N)nc2ccc(-c3ccc(C(=O)Nc4ccc(F)cc4)cc3)nc12 | - | - | replicon | 0.3–1 µM
C=C[C@@H]1C[C@]1(NC(=O)[C@@H]1C[C@@H](Cc2cc(OC)cc(-c3ccccn3)n2)CN1C(=O)[C@@H](NC(=O)OC(C)(C)C)C(C)(C)C)C(=O)NS(=O)(=O)C1CC1 | BMS | - | replicon | <0.1 µM
N#Cc1c(Nc2cccc(Cl)c2)s[nH]c1=O | - | - | replicon | 1–10 µM
CNC(=O)C1Cc2ccccc2-c2c(C3CCCCC3)c3ccc(C(=O)O)cc3n2C1 | - | - | replicon | 0.01–1 µM
N#Cc1c(Nc2ccc(I)c(Cl)c2)s[nH]c1=O | - | - | replicon | <1 µM
C=C[C@@H]1C[C@]1(NC(=O)[C@@H]1C[C@@H](Oc2cc(-c3ccccc3)nc3cc(OC)ccc23)CN1C(=O)[C@@H](NC(=O)OC(C)(C)C)C(C)(C)C)C(=O)NS(=O)(=O)c1cccc(Cl)c1 | 1b | - | replicon | <0.5 µM
CC(C)(NC(N)=S)c1ccc(Oc2ccccc2)cc1 | - | - | replicon | <1 µM
N#Cc1c(Nc2cc(Cl)nc(Cl)n2)s[nH]c1=O | - | - | replicon | 1–10 µM
C=CC[C@]1(CO)O[C@@H](n2ccc(N)nc2=O)[C@H](O)[C@@H]1O | - | - | replicon | >20 µM
C=C[C@@H]1C[C@]1(NC(=O)[C@@H]1C[C@@H](Oc2cc(-c3ccccc3)nc3cc(OC)ccc23)CN1C(=O)[C@@H](NC(=O)OC(C)(C)C)C(C)(C)C)C(=O)NS(=O)(=O)C1CCCCC1 | 1b | - | replicon | <0.5 µM
NC(=S)NCc1ccc(Oc2ccccc2)cc1 | - | - | replicon | <1 µM
N#Cc1c(Nc2ccccc2Cl)s[nH]c1=O | - | - | replicon | 10–50 µM
C=C[C@@H]1C[C@]1(NC(=O)[C@@H]1C[C@@H](Oc2cc(-c3ccccc3)nc3cc(OC)ccc23)CN1C(=O)[C@@H](NC(=O)OC(C)(C)C)C(C)(C)C)C(=O)NS(=O)(=O)c1ccccc1Cl | 1b | - | replicon | <0.5 µM
C=CC[C@](C)(NC(=O)[C@H]1C[C@@H](Oc2nccc3c4c(ccc23)OCO4)CN1C(=O)[C@@H](NC(=O)OC(C)(C)C)C(C)(C)C)C(=O)NS(=O)(=O)C1CC1 | BMS | - | replicon | <0.1 µM
CC(C)CNC(=O)c1ccc(-c2ccc3nc(N)nc(OC(C)C)c3n2)cc1 | - | - | replicon | 0.3–1 µM
CC(Nc1s[nH]c(=O)c1C#N)c1ccccc1 | - | - | replicon | 10–50 µM
C=C[C@@H]1C[C@]1(NC(=O)[C@@H]1C[C@@H](Oc2cc(-c3ccccc3)nc3cc(OC)ccc23)CN1C(=O)[C@@H](NC(=O)OC(C)(C)C)C(C)(C)C)C(=O)NS(=O)(=O)c1ccc(C#N)cc1 | 1b | - | replicon | <0.5 µM
O=C(O)c1ccc2c(C3CCCCC3)c3n(c2c1)CCCCNc1ccccc1-3 | - | - | replicon | 0.01–1 µM
NC(=S)Nc1cccc(OCc2cccc(C(F)(F)F)c2)c1 | - | - | replicon | <1 µM
CCN1CCC(NC(=O)c2ccc3c(c2)nc(-c2ccoc2)n3C2CCCCC2)(C(=O)Nc2ccc(-c3nc(C(=O)O)cs3)cc2)CC1 | - | - | - | ≤5 µM
C=CC[C@](C)(NC(=O)[C@H]1C[C@@H](Oc2ccc3c(Cl)nccc3c2SCCC)CN1C(=O)[C@@H](NC(=O)OC(C)(C)C)C(C)(C)C)C(=O)NS(=O)(=O)C1CC1 | BMS | - | replicon | 0.1–1 µM
CCn1c(C(=O)O)cc2cc(NC(=O)C3(NC(=O)c4ccc5c(c4)nc(-c4ccoc4)n5C4CCCCC4)CCCC3)ccc21 | - | - | - | ≤5 µM
Nc1nc(O[C@H]2CCOC2)c2nc(-c3ccc(C(=O)NCCN4CCOCC4)cc3)ccc2n1 | - | - | replicon | <0.3 µM
N#Cc1c(NCC2CCCCC2)s[nH]c1=O | - | - | replicon | 1–10 µM
C=C[C@@H]1C[C@]1(NC(=O)[C@@H]1C[C@@H](Oc2cc(-c3ccccc3)nc3cc(OC)ccc23)CN1C(=O)[C@@H](NC(=O)CC)C(C)(C)C)C(=O)NS(=O)(=O)C1CC1 | 1b | - | replicon | <0.05 µM
Nc1nc(O[C@@H]2CCOC2)c2nc(-c3ccc(NC(=O)[C@H]4CCNC4)c(F)c3)ccc2n1 | - | - | replicon | <0.3 µM
C[C@@H](NC(=O)c1ccc2c(c1)nc(-c1ccccc1)n2C1CCCCC1)C(=O)Nc1ccc(/C=C/C(=O)O)cc1 | - | - | - | 5–50 µM
CC[C@@H]1C[C@]1(NC(=O)[C@@H]1C[C@@H](Oc2cc(-c3ccccc3)nc3cc(OC)ccc23)CN1C(=O)[C@@H](NC(=O)OCCF)C(C)C)C(=O)NS(=O)(=O)C1CC1 | 1b | - | replicon | <0.5 µM